Pooled drug test results. Numbers come from NIAID ChemDB, via PubChem.

Common to all: whole-cell or culture tests; species: Mycobacterium tuberculosis

a–b is a range or a potency band. Neighbouring rows are from separate reports. ECn is the concentration giving n% inhibition of infection, replication or growth. Blank or dashed fields: not listed here. Percent inhibition refers to the dose given; in toxicity tests it is the harm to the cells. MIC50, MIC90 and the like: level of inhibition, or share of isolates inhibited. MIC bound comes from a single tested concentration.

compound,method,strain,endpoint,changes,tested at,value
COc1cccc2c1[n+]([O-])c1cccc(O)c1[n+]2[O-],-,TAC-R,MIC,-,-,0.8 µg/mL
NCc1ccc(Nc2ccn(CCCCN3CCC(N)CC3)c(=O)n2)nc1,turbidity,H37Rv,EC50,-,-,≥1 µM
Cc1ccc2nc(SCc3ccncc3)[nH]c2c1,-,My 331/88,MIC,-,-,125 µM
O=C(N/N=C/c1cccc2ccccc12)c1ccc(Oc2ccccc2)cc1,resazurin,H37Rv,MIC,-,-,0.98 µg/mL
C/C=C/c1ccc2oc(-c3ccc(OC4OC(C)C(O)C(O)C4O)cc3)c(C)c2c1,BACTEC,H37Rv,MIC bound,-,-,>12.5 µg/mL
N#Cc1cc(SCc2cccnc2)ccn1,-,My 331/88,MIC,-,-,1000 µM
CCCCCCCCO[C@H]1O[C@H](CO[C@H]2O[C@H](CNS(=O)(=O)c3ccc(C)cc3)[C@@H](O)[C@@H]2O)[C@@H](O)[C@@H]1O,-,H37Ra,MIC,-,-,>12.8 µg/mL
Cc1ccc2c(c1)NC(c1ccc(C(=O)O)cc1)c1cccn1-2,BACTEC,H37Rv,inhibition,-,12.5 µg/mL,18%
CN[C@@H]1[C@H](O[C@H]2[C@H](O[C@H]3[C@H](O)[C@@H](O)[C@H](N=C(N)N)[C@@H](O)[C@@H]3N=C(N)N)O[C@@H](C)[C@]2(O)C=O)O[C@@H](CO)[C@H](O)[C@H]1O,turbidity,TB375,MIC,Spiroindene-resistant,-,1 µM
CCCCCCCCO[C@H]1O[C@H](CO[C@H]2O[C@H](CN(CC3CCCCC3)CC3CCCCC3)[C@@H](O)[C@@H]2O)[C@@H](O[Si](C)(C)C(C)(C)C)[C@@H]1O[Si](C)(C)C(C)(C)C,-,H37Ra,MIC,-,-,>12.8 µg/mL
CCc1cc(C(N)=S)ccn1,-,90-0216 (drug-susceptible),MIC,-,-,0.25 µg/mL
NC1CCN(CCCCn2ccc(Nc3ccc(CNC(=O)[C@@H](N)CO)cn3)nc2=O)CC1,turbidity,H37Rv,EC50,-,-,0.5–1 µM
COc1cc2c(cc1OC)C(=O)OC(=O)C2,BACTEC,H37Rv,inhibition,-,12.5 µg/mL,-21%
c1ccc(Oc2ccc(-c3nnc(-c4cccs4)o3)cc2)cc1,resazurin,H37Rv,MIC,-,-,3.65 µg/mL
CCc1cn(C2OC(CO)C(O)C2F)c(=O)[nH]c1=S,resazurin,H37Ra,MIC60,-,-,100 µg/mL
CN(C(=O)OCc1ccccc1)c1ccc(C(=O)NC(CCC(=O)O)C(=O)O)cc1,BACTEC,H37Rv,MIC bound,-,-,≤12.5 µg/mL
CCc1cn2c(nc1=O)O[C@@H]1[C@H](F)[C@H]2O[C@@H]1CO,resazurin,H37Ra,MIC25,-,-,100 µg/mL
S=c1[nH]nc2nc3c4ccccc4c4ncccc4c3nn12,resazurin,H37Rv,inhibition,-,6.25 µg/mL,16%
O=c1cc(-c2ccccc2)c2cc(Cl)ccc2o1,resazurin,-,MIC90,Cycloserine-resistant,-,>100 µg/mL
Cc1ccc2nc(SCc3cccc4ccccc34)[nH]c2c1,-,My 331/88,MIC,-,-,62.5 µM
C[N+](C)(CCCN1c2ccccc2Sc2ccc(Cl)cc21)Cc1ccccc1,-,H37Rv,MIC,-,-,1.11 µg/mL
CONc1ncnc2c1n(C/C=C(\C)CCC=C(C)C)c[n+]2C,-,-,inhibition,-,6.25 µg/mL,27%
C/C(=N\NC(=O)c1ccncc1)c1cccc(F)c1,-,6 PI,MIC,-,-,>20 µg/mL
COc1ccc(-c2noc(C3=CC4(CCN(C(=O)C5CCCO5)CC4)c4ccccc43)n2)cc1,resazurin,H37Rv,MIC,-,-,100 µM
CCCN(Cc1nnc(-c2ccco2)o1)C(=O)Cc1c(Cl)cccc1Cl,fluorescence,-,inhibition,-,20 µM,5%
NCCCNCc1ccc(Nc2nc(=O)n(CCCCN3CCC(N)CC3)cc2F)nc1,turbidity,H37Rv,EC50,-,-,<0.5 µM
Cc1ccc(NC(=O)C(=O)CC(=O)c2c(C)n([O-])c3ccccc3[n+]2=O)cc1C,resazurin,H37Rv,inhibition,-,6.25 µg/mL,88%
c1ccc2c(CSc3nc4ccccc4o3)cccc2c1,-,My 331/88,MIC,-,-,>125 µM
CO/C(=N\N=C\c1ccc(OC)c(F)c1)c1ccncc1,-,6 PI,MIC,-,-,>20 µg/mL
CC(=O)c1ccc(N2CCN(C(=O)CC(C)C)CC2)cc1,turbidity,BioA overexpression strain,MIC50,-,-,>50 µM
C#C/C=C/C[C@@H](OC(C)=O)[C@H]1C/C=C\C[C@H](Br)[C@@H](CC)O1,BACTEC,H37Rv,MIC bound,-,-,>12.5 µg/mL
O=C(N/N=C/c1cccs1)c1ccc(Oc2ccccc2)cc1,resazurin,H37Rv,MIC,-,-,1.69 µg/mL
O=C1NC2=NNC(S)N2NC12c1ccccc1-c1ccccc12,BACTEC,H37Rv,MIC bound,-,-,>12.5 µg/mL
Cc1ccc(-c2noc(C3=CC4(CCN(CC5CCCO5)CC4)c4ccccc43)n2)cn1,resazurin,912253,MIC,Isoniazid-resistant,-,1.56 µM
CC[C@H]1OC(=O)[C@H](C)[C@@H](O[C@H]2C[C@@](C)(OC)[C@@H](O)[C@H](C)O2)[C@H](C)[C@@H](O[C@@H]2O[C@H](C)C[C@H](N(C)C)[C@H]2O)[C@](C)(OC)C[C@@H](C)C(=O)[C@H](C)[C@@H](O)[C@]1(C)O,-,90-0216 (drug-susceptible),MIC,-,-,2 µg/mL
c1ccc2c(CSc3ncn[nH]3)cccc2c1,-,My 331/88,MIC,-,-,250 µM
NC1CCN(CCCCn2ccc(Nc3ccc(CN4CCC(N)CC4)cn3)nc2=O)CC1,turbidity,H37Rv,EC50,-,-,<0.5 µM
O=C(Nc1ccc(Cl)c(C(F)(F)F)c1)C(=O)C(C(=O)/C=C\c1ccccc1)C1OC(=O)c2ccccc21,BACTEC,H37Rv,MIC bound,-,-,>12.5 µg/mL
CCc1cn(C2OC(CO)CC2F)c(=O)[nH]c1=O,resazurin,H37Ra,MIC25,-,-,100 µg/mL
CCc1sc(-c2nnc(COC(=O)CNC(=O)c3ccc4c(c3)OCO4)o2)cc1C,fluorescence,-,inhibition,-,20 µM,15%
O=C(c1ccc([N+](=O)[O-])o1)N1CCc2cc(N3CCN(Cc4ccccc4)CC3)ccc2C1,-,HN878,MIC,-,-,0.05 µg/mL
COc1c(N2CC[C@@H](C(C)(C)N)C2)c(F)cc2c(=O)c3c(=O)[nH]sc3n(C3CC3)c12,-,Pan-susceptible clinical isolate 1,MIC,-,-,0.06 µg/mL
O=C(c1cccc(Cl)c1)N1CCN(c2ccc(-c3ccccn3)cc2)CC1,turbidity,BioA underexpression strain,MIC50,-,-,>50 µM
NC1CCN(CCCCn2ccc(Nc3ccc(CNC4CNC4)cn3)nc2=O)CC1,turbidity,H37Rv,EC50,-,-,0.5–1 µM
CO[C@H]1/C=C/O[C@@]2(C)Oc3c(C)c(O)c4c(O)c(c(/C=N/N5CCN(C)CC5)c(O)c4c3C2=O)NC(=O)/C(C)=C\C=C\[C@H](C)[C@H](O)[C@@H](C)[C@@H](O)[C@@H](C)[C@H](OC(C)=O)[C@@H]1C,fluorescence,-,MIC,-,-,0.003 µM
CC1S(=O)(=O)O[Si](C)(C)CC[Si](C)(C)OS1(=O)=O,BACTEC,H37Rv,MIC bound,-,-,>12.5 µg/mL
CONc1ncnc2c1n(C/C=C(\C)CC/C=C(\C)CCC1CCCCC1)c[n+]2C,-,-,inhibition,-,6.25 µg/mL,99%
NC[C@H]1O[C@H](O[C@H]2[C@H](O)[C@@H](O[C@H]3O[C@H](CO)[C@@H](O)[C@H](N)[C@H]3O)[C@H](N)C[C@@H]2N)[C@H](O)[C@@H](O)[C@@H]1O,-,607,MIC,-,-,1–2 µg/mL
CC(C)(C)c1cc(C(C)(C)O)c2c(c1)C(C)(C)OS2(C)Cl,BACTEC,H37Rv,MIC bound,-,-,>12.5 µg/mL
N[C@@H]1CONC1=O,fluorescence,-,MIC,-,-,>20 µM
C=C1C(=O)CCC1C(=O)O,BACTEC,H37Rv,MIC bound,-,-,>12.5 µg/mL
N[C@@H]1CONC1=O,-,90-0233 (INH SM-RS),MIC,-,-,75 µg/mL
CO[C@H]1/C=C/O[C@@]2(C)Oc3c(C)c(O)c4c(O)c(c(/C=N/N5CCN(C6CCCC6)CC5)c(O)c4c3C2=O)NC(=O)/C(C)=C\C=C\[C@H](C)[C@H](O)[C@@H](C)[C@@H](O)[C@@H](C)[C@H](OC(C)=O)[C@@H]1C,-,L189,MIC,-,-,0.1 µg/mL
COc1ccc(-c2noc(C3=CC4(CCN(CC(=O)N(C)C)CC4)c4ccccc43)n2)cc1,resazurin,H37Rv,MIC,-,-,6.3 µM
CCOc1nnc(NS(=O)(=O)c2ccc(N)cc2)o1,fluorescence,-,MIC,-,-,6.4 µM
CCCCCCCCO[C@H]1O[C@H](CO[C@H]2O[C@H](CNC(=O)c3ccccc3)[C@@H](O[Si](C)(C)C(C)(C)C)[C@@H]2O[Si](C)(C)C(C)(C)C)[C@@H](O[Si](C)(C)C(C)(C)C)[C@@H]1O[Si](C)(C)C(C)(C)C,-,H37Ra,MIC,-,-,>12.8 µg/mL
NC1CCN(CCCCn2ccc(Nc3ccc(COC[C@@H]4CCCN4)cn3)nc2=O)CC1,turbidity,H37Rv,EC50,-,-,0.5–1 µM
CC(=O)c1ccc(N2CCC(C(=O)c3ccc4c(c3)OCO4)CC2)cc1,turbidity,Wild type without biotin,MIC50,-,-,>50 µM
CC1COc2c(N3CCN(C)CC3)c(F)cc3c(=O)c(C(=O)O)cn1c23,-,90-0241 (drug-susceptible),MIC,-,-,0.75 µg/mL
CC(=O)c1ccc(N2CCN(C(=O)c3cccc(Cl)c3)CC2)s1,turbidity,Wild type without biotin,MIC90,-,-,34.1 µM
CC1=C(O)NC(CC(=O)C(O)CO)=CN1,BACTEC,H37Rv,MIC bound,-,-,>12.5 µg/mL
NC[C@H]1O[C@H](O[C@H]2[C@H](O)[C@@H](O[C@H]3O[C@H](CO)[C@@H](O)[C@H](N)[C@H]3O)[C@H](N)C[C@@H]2N)[C@H](O)[C@@H](O)[C@@H]1O,-,H37Rv,MIC,-,-,2 µg/mL
C/C(=N\NC(=O)c1ccncc1)c1ccccc1F,-,H37Rv,MIC,-,-,>20 µg/mL
NC1CCN(CCCCn2ccc(Nc3cc(CO)ccn3)nc2=O)CC1,turbidity,H37Rv,EC50,-,-,≥1 µM
COc1cc2c(cc1O)C(=O)c1[nH]c3ccccc3c1CC2,resazurin,H37Rv,inhibition,-,6.25 µg/mL,34%
O=C(NCc1ccc(N2CCN(Cc3ccccc3)CC2)cc1)c1ccc([N+](=O)[O-])o1,-,UT15,MIC,-,-,0.012 µg/mL
C=C(CCCCCCCCC)CC(=O)SCCNC(=O)CCNC(=O)C(O)C(C)(C)COP(=O)(O)OP(=O)(O)OC[C@H]1O[C@@H](n2cnc3c(N)ncnc32)[C@H](O)[C@@H]1OP(=O)(O)O,resazurin,H37Rv,MIC bound,-,-,>6.25 µg/mL
CC(=O)c1ccc(-c2cn(Cc3cccc(Cl)c3)nn2)cc1,turbidity,Wild type without biotin,MIC50,-,-,>50 µM
CCCCCC/C=C/CCCCCCCCCc1cc(O)cc(OC)c1O,BACTEC,H37Rv,MIC bound,-,-,>12.5 µg/mL
CCCCCCCCO[C@H]1O[C@H](CO[C@H]2O[C@H](CN=[N+]=[N-])[C@@H](O[Si](C)(C)C(C)(C)C)[C@@H]2O[Si](C)(C)C(C)(C)C)[C@@H](O[Si](C)(C)C(C)(C)C)[C@@H]1O[Si](C)(C)C(C)(C)C,-,H37Ra,MIC,-,-,>12.8 µg/mL
Cc1noc(NS(=O)(=O)c2ccc(N=NC(C#N)C#N)cc2)c1C,BACTEC,H37Rv,MIC bound,-,-,>12.5 µg/mL
CO/C(=N\N=C\c1ccccc1F)c1ccncc1,-,6 PI,MIC,-,-,>20 µg/mL
O=P1(C(Cl)Cl)OCCCCO1,BACTEC,H37Rv,inhibition,-,12.5 µg/mL,7%
C1=C(c2nc(-c3cccnc3)no2)c2ccccc2C12CCN(CC1CCCO1)CC2,resazurin,D-211,MIC,Drug-resistant,-,1.56 µM
CC(C)c1cccc(C(C)C)c1NC(=O)C(=O)CC(=O)CC(c1ccccc1)c1c(O)c2ccccc2oc1=O,BACTEC,H37Rv,MIC bound,-,-,>12.5 µg/mL
c1cncc(CSc2nc3ccccc3[nH]2)c1,-,My 331/88,MIC,-,-,1000 µM
COc1ccc(-c2noc(C3=CC4(CCN(CC5CCCO5)CC4)c4ccccc43)n2)cc1,turbidity,TB333,MIC,Spiroindene-resistant,-,3 µM
CCCCCCCCO[C@H]1O[C@H](CO[C@H]2O[C@H](CN(CC3CCCCC3)CC3CCCCC3)[C@@H](O)[C@@H]2O)[C@@H](O)[C@@H]1O,-,H37Ra,MIC,-,-,8 µg/mL
c1ccc(C(Sc2nnc(-c3ccco3)o2)c2ccccc2)cc1,fluorescence,-,inhibition,-,20 µM,24%
O=C(NCc1ccc(N2CCN(Cc3ccccc3)CC2)nc1)c1ccc([N+](=O)[O-])o1,-,UT29,MIC,-,-,0.024 µg/mL

A second listing of 5 rows from above:

compound	method	strain	endpoint	changes	tested at	value
CC(=O)c1ccc(N2CCC(C(=O)c3ccc4c(c3)OCO4)CC2)cc1	turbidity	Wild type without biotin	MIC50	-	-	>50 µM
N[C@@H]1CONC1=O	-	90-0233 (INH SM-RS)	MIC	-	-	75 µg/mL
CCCCCCCCO[C@H]1O[C@H](CO[C@H]2O[C@H](CN=[N+]=[N-])[C@@H](O[Si](C)(C)C(C)(C)C)[C@@H]2O[Si](C)(C)C(C)(C)C)[C@@H](O[Si](C)(C)C(C)(C)C)[C@@H]1O[Si](C)(C)C(C)(C)C	-	H37Ra	MIC	-	-	>12.8 µg/mL
CO[C@H]1/C=C/O[C@@]2(C)Oc3c(C)c(O)c4c(O)c(c(/C=N/N5CCN(C6CCCC6)CC5)c(O)c4c3C2=O)NC(=O)/C(C)=C\C=C\[C@H](C)[C@H](O)[C@@H](C)[C@@H](O)[C@@H](C)[C@H](OC(C)=O)[C@@H]1C	-	L189	MIC	-	-	0.1 µg/mL
CCCCCCCCO[C@H]1O[C@H](CO[C@H]2O[C@H](CN(CC3CCCCC3)CC3CCCCC3)[C@@H](O)[C@@H]2O)[C@@H](O[Si](C)(C)C(C)(C)C)[C@@H]1O[Si](C)(C)C(C)(C)C	-	H37Ra	MIC	-	-	>12.8 µg/mL